The values below come from publication PMC4038613, “A New Class of Multimerization Selective Inhibitors of HIV-1 Integrase” (PLoS Pathogens, 2014).

This test concerns the target A128T IN (Human immunodeficiency virus type 1 group M subtype B, UniProt P12497, A1275T). In kind it is biochemical, HIV-1.

For the compound `Cc1nc(-c2nc3ccc(Cl)cc3[nH]2)c(C)c(-c2ccccc2)c1C(OC(C)(C)C)C(=O)O` (stereo not shown) [KF116], the “aberrant IN multimerization of A128T IN in vitro” value is reported as “potently promoted aberrant IN multimerization of A128T IN”.
